The results in this text go back to publication PMC10881513, “Structure of the recombinant RNA polymerase from African Swine Fever Virus” (2024).

This assay has as its target ASFV RNA polymerase subunit vRPB1, African swine fever virus, strain BA71V, P42486 1-1450.

With ASFV RNA polymerase subunit vRPB5, the result is listed as “binds”.

With ASFV RNA polymerase subunit vRPB6, the result is “binds”.
